According to patent US6900351B2, “Aminopolycarboxylates, process for producing the same and use thereof” (Tosoh Corporation, priority 2000, dated 2005):

Test system: activated sludge
Experiment: Biodegradability test with activated sludge (modified MITI method, OECD Test Guideline 301C)
Details: 25° C., 4 weeks

Compound: O=C([O-])CC(NCCNC(CC(=O)[O-])C(=O)O)C(=O)[O-].[Na+].[Na+].[Na+] (centres unmarked) [trisodium N,N′-ethylenediaminedisuccinate]
- proportion degraded in biodegradability test (modified MITI method OECD 301C, sample 100 mg/l, activated sludge 30 mg/l): ≥ 80%
- proportion degraded in biodegradability test (sample 30 mg/l, activated sludge 100 mg/l): ≥ 80%
